Measured values from several laboratories, pooled; numbers as filed in NIAID ChemDB.

Common to all: growth or infection tests; agent: Candida albicans

Conditions beyond the fields shown may differ between rows. A number after MIC or MFC names an inhibition level or a share of isolates. ECn is the concentration giving n% inhibition of infection, replication or growth. An empty or dashed field is not shown.

compound,strain,read by,measure,result
CCCCCCCCCCCCCCCC(=O)NC(CCCCN)C(=O)NC(CCCCN)C(N)=O,90029,broth dilution,MIC,0.5 µg/mL
CCCCCCCCCCCOC(=O)C(N)Cc1ccc(OC)cc1,-,-,MIC,1000 µg/mL
C=C(C)CN=C(N)NCCCCCCCN1CCCCCCCCN=C(N)NC1=O,4T,-,MIC50,40 µM
O=[N+]([O-])c1c(Cl)cccc1-c1c[nH]cc1Cl,40 strains,-,EC50,>47.92 µg/mL
CO[C@@H](n1cccn1)[C@@](O)(Cn1ccnc1)c1ccc(F)cc1,-,-,MIC,>100 µg/mL
C=C(CCCCCNC1NCCC2c3ccc(OC)cc3CCN12)C(C)C,NFI0124,-,MIC,32 µg/mL
CO[C@@H](n1cccn1)[C@](O)(Cn1ccnc1)c1ccc(Cl)cc1,-,-,MIC,>100 µg/mL
CCCCCCOC(=O)C(N)Cc1ccccc1,-,-,MIC,500 µg/mL
Cc1c(C(=O)O)c(-c2ccc(Cl)cc2)cn1-c1ccc(Cl)cc1,40 strains,-,Mean MIC,24.9 µg/mL
CCCCCCCCCCCCCCCC(=O)NC1CC(O)C(O)NC(=O)C2C(O)C(C)CN2C(=O)C(C(O)CC(N)=O)NC(=O)C(C(O)C(O)c2ccc(O)c(OS(=O)(=O)O)c2)NC(=O)C2CC(O)CN2C(=O)C(C(C)O)NC1=O,FP629,-,MIC50,0.008 µg/mL
C=C(C)C1OC2=C(C(=O)c3cccc(O)c3C2=O)C1O,-,-,MIC,10 µg/mL
CCCCCCCCCOC(=O)C(N)Cc1ccc(OC)cc1,-,-,MIC,250 µg/mL
C[C@H]1[C@H](O)[C@@H](C)/C=C/C=C/C=C/C=C/C=C/C=C/C=C/[C@H](O[C@@H]2O[C@H](C)[C@@H](O)[C@H](N)[C@@H]2O)C[C@@H]2O[C@](O)(C[C@@H](O)C[C@@H](O)CC[C@H](O)[C@@H](O)C[C@@H](O)CC(=O)O[C@H]1C)C[C@H](O)[C@H]2C(=O)O,KB,-,MIC,0.5 µg/mL
CN=[N+]([O-])CC[C@H](N)C(=O)O,CY3003,-,MIC80,83 µg/mL
C=C(C)c1cc2c(o1)C(=O)c1c(O)cccc1C2=O,-,-,MIC,40 µg/mL
CO[C@@H](n1ccnc1)[C@](O)(Cn1cncn1)c1ccccc1,-,-,MIC,>100 µg/mL
CC(=O)N1CCN(c2ccc(OC[C@H]3CO[C@](Cn4ccnc4)(c4ccc(Cl)cc4Cl)O3)cc2)CC1,ATCC 14053,-,MIC50,0.125 µg/mL
CO[C@@H](n1cncn1)[C@@](O)(Cn1cncn1)c1ccc(Cl)cc1,-,-,MIC,>100 µg/mL
CCCCCCCCOc1ccc(-c2ccc(C(=O)NC3CC(NCCN)CNC(=O)[C@@H]4[C@@H](O)[C@@H](C)CN4C(=O)[C@@H](CO)NC(=O)[C@H]([C@H](O)Cc4ccccc4)NC(=O)[C@@H]4C[C@@H](O)CN4C(=O)[C@H]([C@@H](C)O)NC3=O)cc2)cc1,98-17,-,MIC,0.5 µg/mL
C=CCc1ccc(O)c(OC)c1,3078,turbidity,MIC90,475 µg/mL
Cc1c(C(=O)O)c(-c2ccc(Br)cc2)cn1-c1ccc(Br)cc1,40 strains,-,EC50,>12.29 µg/mL
CO[C@@H](n1cncn1)[C@@](O)(Cn1cncn1)c1ccc(F)cc1F,-,-,MIC,>100 µg/mL
CCCCCCCCNC1NCCC2c3ccccc3CCN12,NFI2103,-,MIC,16 µg/mL
C[C@H]1[C@H](O)[C@@H](C)/C=C/C=C/C=C/C=C/C=C/C=C/C=C/[C@H](O[C@@H]2O[C@H](C)[C@@H](O)[C@H](N)[C@@H]2O)C[C@@H]2O[C@](O)(C[C@@H](O)C[C@@H](O)CC[C@H](O)[C@@H](O)C[C@@H](O)CC(=O)O[C@H]1C)C[C@H](O)[C@H]2C(=O)O,2402E,-,MIC,0.03 µg/mL
O[C@@](Cn1cncn1)(c1ccc(F)cc1)[C@@H](OCC(F)(F)F)n1cncn1,-,-,MIC,>100 µg/mL
O=C1CC(c2ccccc2)N(OCCc2nc3ccccc3o2)C(c2ccccc2)C1,-,-,MIC,100 µg/mL
CO[C@@H](n1cncn1)[C@@](O)(Cn1cncn1)c1ccc(Cl)cc1Cl,-,-,MIC,>100 µg/mL
CCCCCCCCNC1NCCC2c3ccc(OC)cc3CCN12,NFI0124,-,MIC80,16 µg/mL
C=C(C)C1CC2=C(O1)C(=O)c1cccc(O)c1C2=O,-,-,MIC,10 µg/mL
CCCCCCCCCCCCCCCC(=O)NC1CC(O)C(O)NC(=O)C2C(O)C(C)CN2C(=O)C(C(O)CC(N)=O)NC(=O)C(C(O)Cc2ccc(O)c(OS(=O)(=O)O)c2)NC(=O)C2CC(O)CN2C(=O)C(C(C)O)NC1=O,FP633,-,MIC50,0.025 µg/mL
C=C(CCCCCNC1NCCC2c3ccccc3CCN12)C(C)C,NFI0124,-,MIC,32 µg/mL
C=CCSS(=O)CC=C.OC(Cn1cncn1)(Cn1cncn1)c1ccc(F)cc1F,ATCC 14053,-,MIC50,1 µg/mL
CCCCCOC(=O)C(N)Cc1ccc(OC)c(Cl)c1,-,-,MIC,250 µg/mL
Cc1ccc(-c2cn(-c3ccc(F)cc3)c(C)c2C(=O)O)cc1,40 strains,-,EC50,<73.33 µg/mL
Cc1ccc(C(C)C)c(O)c1,M1,-,MLC,0.32 µg/mL
CCS(=O)(=O)C(F)(F)C(O)(Cn1cncn1)c1ccc(F)cc1F,6 strains (fluconazole-resistant),-,MIC50,1 µg/mL
CC(C)=CCN=C(N)NCCCCCCCCCNCCCCCCCNC(N)=NCC=C(C)C,53T,-,MIC50,80 µM
COc1ccc(C2CC(=O)C(C)C(c3ccc(OC)cc3)N2OCCc2nc3ccccc3o2)cc1,-,-,MIC,50 µg/mL
Cc1c(C(=O)O)c(-c2ccc(F)cc2)cn1-c1ccc(Br)cc1,40 strains,-,EC50,>16.77 µg/mL
Cc1ccc2sn(NS(=O)(=O)c3ccc(N)cc3)c(=O)c2c1,ATCC 10231,-,MIC,>100 µg/mL
C/C=C/CN=C(N)NCCCCCCCN1CCCCCCCCN=C(N)NC1=O,4T,-,MIC50,1.25 µM
CO[C@@H](n1cccn1)[C@@](O)(Cn1ccnc1)c1ccc(F)cc1F,-,-,MIC,>100 µg/mL
Cc1ccc(-c2cn(-c3ccc(Br)cc3)c(C)c2C(=O)O)cc1,40 strains,-,EC50,<158 µg/mL
CC(C)=CCCNC(N)=NCCCCCCCCCNCCCCCCCN=C(N)N,15T,-,MIC50,40 µM
CC1C(=O)CC(c2ccc(Cl)cc2)N(OCCc2nc3ccccc3o2)C1c1ccc(Cl)cc1,-,-,MIC,25 µg/mL

3 of the rows above, restated:

compound | strain | read by | measure | result
C/C=C/CN=C(N)NCCCCCCCN1CCCCCCCCN=C(N)NC1=O | 4T | - | MIC50 | 1.25 µM
C=C(C)CN=C(N)NCCCCCCCN1CCCCCCCCN=C(N)NC1=O | 4T | - | MIC50 | 40 µM
CO[C@@H](n1cccn1)[C@](O)(Cn1ccnc1)c1ccc(Cl)cc1 | - | - | MIC | >100 µg/mL